Measured values from several laboratories, pooled; numbers as filed in NIAID ChemDB.

MIC bound: limit read from a one-dose screen.

smiles | dose | strain or isolate | endpoint | read by | kind | agent | target | result
COc1ccc(-c2nc3ccc(N)cc3nc2-c2ccc(OC)cc2)cc1 |  | H37Rv | MIC |  | culture | Mycobacterium tuberculosis |  | >100 µg/mL
CNC(=O)OCCN(CCOC(=O)NC)C(=O)N1c2ccccc2Sc2ccccc21 |  | H37Rv | MIC bound | BACTEC | culture | Mycobacterium tuberculosis |  | >12.5 µg/mL
CCOc1ccc(-c2cncc(N3CCN(c4ccc(OC)c(OC)c4)CC3)n2)cc1 | 1 µM |  | inhibition |  | target | Cytomegalovirus | UL97 kinase | <50%
Fc1ccccc1CNCCNCCCCc1ccccc1 |  |  | MIC |  | culture | Mycobacterium tuberculosis |  | 50 µM
FC(F)(F)c1cc(-c2cncc(N3CCN(c4ccccc4)CC3)n2)cc(C(F)(F)F)c1 |  |  | IC50 |  | target | Cytomegalovirus | UL97 kinase | <100 µM
CC(=O)N(C(C)=O)n1c(Cc2ccc(Cl)cc2)nn(C(C)=O)c1=O |  | H37Rv | MIC bound | BACTEC | culture | Mycobacterium tuberculosis |  | >12.5 µg/mL
Cc1ccc(N2CCN(c3cncc(-c4ccc(F)c(Cl)c4)n3)CC2)cc1C |  |  | IC50 |  | target | Cytomegalovirus | UL97 kinase | <100 µM
O=C1c2ccc(O)c(O)c2C(=O)c2c(O)ccc(O)c21 |  | H37Rv | MIC |  | culture | Mycobacterium tuberculosis |  | >100 µg/mL
CC(C)(C)c1ccc(-c2cncc(N3CCN(c4ccccc4)CC3)n2)cc1 |  |  | IC50 |  | target | Cytomegalovirus | UL97 kinase | <100 µM
Nc1ccc(Nc2ccc([As]=O)cc2)nc1 |  | H37Rv | MIC |  | culture | Mycobacterium tuberculosis |  | >100 µg/mL
CC(=O)[C@H]1CC[C@H]2[C@@H]3C=CC4=CC(=O)CCC4(C)[C@@H]3CC[C@]12C | 12.5 µg/mL | H37Rv | inhibition | BACTEC | culture | Mycobacterium tuberculosis |  | 0%
Fc1ccc(N2CCCCC2)c(NC(=S)c2ccncc2)c1 | 10 µM |  | inhibition | kinase activity | host protein |  | Plk3 | 5%
Cc1cccc2c1CN1CC(=O)NC1=N2 |  | H37Rv | MIC bound |  | culture | Mycobacterium tuberculosis |  | >6.25 µg/mL
CN(C)c1ccc(-c2cncc(N3CCC(c4ccccc4)CC3)n2)cc1 |  |  | IC50 |  | target | Cytomegalovirus | UL97 kinase | <10 µM
O=Cc1c2c(cc3ccccc13)Nc1ccccc1N2 |  | H37Rv | MIC bound | BACTEC | culture | Mycobacterium tuberculosis |  | >12.5 µg/mL
NS(=O)(=O)c1cccs1 |  | H37Rv | MIC |  | culture | Mycobacterium tuberculosis |  | 100 µg/mL
CC(=O)c1ccccc1-c1cncc(N2CCN(c3ccncc3)CC2)n1 | 10 µM |  | inhibition |  | target | Cytomegalovirus | UL97 kinase | >15%
CO[C@@H]1[C@@H](OC(=O)c2ccc(C)[nH]2)[C@@H](O)C(Oc2ccc3c(O)c(NC(=O)c4c[nH]c(C(=O)Nc5c(O)c6ccc(OC7OC(C)(C)[C@H](OC)[C@@H](OC(=O)c8ccc(C)[nH]8)[C@H]7O)c(C)c6oc5=O)c4C)c(=O)oc3c2C)OC1(C)C |  | TAC-R | MIC |  | culture | Mycobacterium tuberculosis |  | 3.2 µg/mL
CCN(CC)c1cccc(CCNS(C)(=O)=O)c1 |  | H37Rv | MIC |  | culture | Mycobacterium tuberculosis |  | >100 µg/mL
CC(=O)O[C@H]1CC(=O)OC(C)(C)[C@@H]2CC(=O)[C@]3(C)[C@H](CC[C@@]4(C)[C@H](c5ccoc5)OC(=O)[C@H]5O[C@]543)[C@@]12C |  | H37Rv | MIC bound | BACTEC | culture | Mycobacterium tuberculosis |  | >12.5 µg/mL
COc1ccc(N)cc1 |  | H37Rv | MIC |  | culture | Mycobacterium tuberculosis |  | 100 µg/mL
Cc1ccc(CNCCNC(C)Cc2c[nH]c3ccccc23)cc1 |  |  | MIC |  | culture | Mycobacterium tuberculosis |  | 50 µM
Cc1cc(C(=O)O)c2c(ccc3ccccc32)n1 |  | H37Rv | MIC |  | culture | Mycobacterium tuberculosis |  | 50 µg/mL
c1ccc(CCCNCCNCC23CC4CC(CC(C4)C2)C3)cc1 |  |  | MIC |  | culture | Mycobacterium tuberculosis |  | 25 µM
Nc1ccc(C(=O)C(=O)c2ccc(N)cc2)cc1 |  | H37Rv | MIC |  | culture | Mycobacterium tuberculosis |  | 100 µg/mL
CCCCC(CC)CN1CN(CC(CC)CCCC)CC(C)(NCCNCCc2ccc(O)cc2)C1 |  |  | MIC |  | culture | Mycobacterium tuberculosis |  | 25 µM
O=[N+]([O-])c1ccc(NCCNS(=O)(=O)c2ccccc2)cc1 |  | H37Rv | MIC |  | culture | Mycobacterium tuberculosis |  | >100 µg/mL
COc1ccc(CNCCNCCC2=CCCCC2)c(OC)c1 |  |  | MIC |  | culture | Mycobacterium tuberculosis |  | 50 µM
O=C([O-])C[S][Bi]([S]CC(=O)[O-])[S]CC(=O)[O-].[Na+].[Na+].[Na+] |  | H37Rv | MIC |  | culture | Mycobacterium tuberculosis |  | >100 µg/mL
CCN(CC)C(=S)S[Se](SC(=S)N(CC)CC)(SC(=S)N(CC)CC)SC(=S)N(CC)CC |  | PAS-R | MIC |  | culture | Mycobacterium tuberculosis |  | 1.6 µg/mL
CCOC(=O)Nc1ccc(C(=O)OC)c(O)c1 |  | H37Rv | MIC |  | culture | Mycobacterium tuberculosis |  | 100 µg/mL
CCCCC(CC)CN1CN(CC(CC)CCCC)CC(C)(NCCNC2CCc3ccccc32)C1 |  |  | MIC |  | culture | Mycobacterium tuberculosis |  | 25 µM
CCOC(=O)[C@H]1O[C@@H]([C@@]2(C)O[C@]3(O[C@]4(C=C[C@H]3O)O[C@H]([C@@H](C)C(=O)[C@@H](C)[C@@H](O)[C@H](C)C[C@H](C)c3c(Cl)cc(C)c(O)c3C(=O)O)[C@@H](C)C[C@H]4C)[C@H](C)[C@H]2OC)C[C@H]1O |  | PZA-R | MIC |  | culture | Mycobacterium tuberculosis |  | 6.3 µg/mL
C=CCc1ccc(OC)c(OC)c1 |  | 3070 | MIC90 | turbidity | culture | Candida albicans |  | 345 µg/mL
[N-]=[N+]=Nc1ccc(S(=O)(=O)c2ccc(N=[N+]=[N-])cc2)cc1 |  | H37Rv | MIC |  | culture | Mycobacterium tuberculosis |  | >100 µg/mL
CC1(C)[C@H]2CC[C@@H](CNCCNC3CCCCCCC3)[C@@H]1C2 |  |  | MIC |  | culture | Mycobacterium tuberculosis |  | 12.5 µM
CCN(CC)c1c(C)nnc2c3c(-c4ccccc4)c(-c4ccccc4)nnc3nn12 | 6.25 µg/mL | H37Rv | inhibition | resazurin | culture | Mycobacterium tuberculosis |  | 36%
Cc1nc2ccccc2o1 |  | H37Rv | MIC |  | culture | Mycobacterium tuberculosis |  | 100 µg/mL
Nc1nc(Cl)c(Cl)nc1N | 6.25 µg/mL | H37Rv | inhibition | BACTEC | culture | Mycobacterium tuberculosis |  | 0%
CN(C)c1ccc(-c2cncc(N3CCN(c4cccc(C(F)(F)F)c4)CC3)n2)cc1 |  |  | IC50 |  | target | Cytomegalovirus | UL97 kinase | <100 µM
O=C(Nc1ccccc1SC(/C=C/NNC1=NC(c2ccccc2)C(c2ccccc2)=NN1)c1ccccc1)c1ccc(Cl)cc1Cl |  | H37Rv | MIC bound | BACTEC | culture | Mycobacterium tuberculosis |  | >12.5 µg/mL
CCCCCc1ccc(Oc2ccc([N+](=O)[O-])cc2C(=O)Nc2cccc(NC(C)=O)c2)c(CCCCC)c1 |  | H37Rv | MIC |  | culture | Mycobacterium tuberculosis |  | >100 µg/mL
O=C1c2cc([N+](=O)[O-])cnc2S(=O)(=O)N1c1ccc(Oc2ccccc2)cc1 | 6.25 µg/mL | H37Rv | inhibition | resazurin | culture | Mycobacterium tuberculosis |  | -16%
N#Cc1cccc(-c2cncc(N3CCN(c4ccncc4)CC3)n2)c1 | 1 µM |  | inhibition |  | target | Cytomegalovirus | UL97 kinase | <50%
O=C1c2cccc3cccc(c23)C(=O)N1c1nccs1 | 6.25 µg/mL | H37Rv | inhibition | resazurin | culture | Mycobacterium tuberculosis |  | 13%
c1ccc([CH2][Pb]([c]2ccccc2)([c]2ccccc2)[c]2ccccc2)cc1 |  | H37Rv | MIC |  | culture | Mycobacterium tuberculosis |  | >100 µg/mL
Cc1c(SC(Cl)(Cl)Cl)cc([N+](=O)[O-])c(N(C)C)c1[N+](=O)[O-] | 12.5 µg/mL | H37Rv | inhibition | BACTEC | culture | Mycobacterium tuberculosis |  | 24%
Br.Cc1c(-c2c(C)n(C)n(C)c2=O)c(=O)n(C)n1C |  | H37Rv | MIC |  | culture | Mycobacterium tuberculosis |  | >100 µg/mL
NC(=S)NNC(=S)S |  | H37Rv | MIC |  | culture | Mycobacterium tuberculosis |  | >12.5 µg/mL
OCCN1CCN(CCO)C1=S |  | H37Rv | MIC |  | culture | Mycobacterium tuberculosis |  | >100 µg/mL
CCN1CCN(c2ccc(Nc3ccnc4ccc5nn(C)nc5c34)cc2)CC1 |  | H37Rv | MIC bound | resazurin | culture | Mycobacterium tuberculosis |  | >6.25 µg/mL
O=C(CC(Br)C(=O)c1ccccc1)c1ccccc1 |  | H37Rv | MIC |  | culture | Mycobacterium tuberculosis |  | 100 µg/mL
Cc1ncc([N+](=O)[O-])n1CCNC(=O)CCCCn1ccnc1[N+](=O)[O-] | 6.25 µg/mL | H37Rv | inhibition | resazurin | culture | Mycobacterium tuberculosis |  | -24%
COc1ccc(CNCCNC[C@@H]2CC[C@H]3C[C@@H]2C3(C)C)c(OC)c1 |  |  | MIC |  | culture | Mycobacterium tuberculosis |  | 50 µM
Cc1c(-c2ccc(C(=N)N)cc2)oc(-c2ccc(C(=N)N)cc2)c1C |  | H37Rv | MIC bound | BACTEC | culture | Mycobacterium tuberculosis |  | >12.5 µg/mL
CCC(C)(C)NCCNCC1(O)CCCCC1 |  |  | MIC |  | culture | Mycobacterium tuberculosis |  | 50 µM
O=S(=O)(CCl)c1ccccc1 |  | H37Rv | MIC |  | culture | Mycobacterium tuberculosis |  | 100 µg/mL

A second listing of 4 rows from above:

smiles | dose | strain or isolate | endpoint | read by | kind | agent | target | result
c1ccc(CCCNCCNCC23CC4CC(CC(C4)C2)C3)cc1 |  |  | MIC |  | culture | Mycobacterium tuberculosis |  | 25 µM
Nc1ccc(Nc2ccc([As]=O)cc2)nc1 |  | H37Rv | MIC |  | culture | Mycobacterium tuberculosis |  | >100 µg/mL
CC(=O)N(C(C)=O)n1c(Cc2ccc(Cl)cc2)nn(C(C)=O)c1=O |  | H37Rv | MIC bound | BACTEC | culture | Mycobacterium tuberculosis |  | >12.5 µg/mL
CC(=O)O[C@H]1CC(=O)OC(C)(C)[C@@H]2CC(=O)[C@]3(C)[C@H](CC[C@@]4(C)[C@H](c5ccoc5)OC(=O)[C@H]5O[C@]543)[C@@]12C |  | H37Rv | MIC bound | BACTEC | culture | Mycobacterium tuberculosis |  | >12.5 µg/mL

Neighbouring rows are from separate reports. Percent inhibition refers to the dose given; in toxicity tests it is the harm to the cells. MIC50, MIC90 and the like: level of inhibition, or share of isolates inhibited. ICn is the concentration giving n% inhibition. Blank or dashed fields: not listed here.